Measurements reported in PubChem BioAssay AID1224833 (University of Georgia, 2016).

- Assay: 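Human genes whose knock-down alters rotavirus replication in monkey cells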 (primary screen)
- Cells: monkey MA104 kidney cells
- Reagent: siRNA pool against human genes, 50 nM
- Duration: 48 h knock-down before infection; read 24 h after infection
- Conditions: infection with rotavirus strain RV3 two days after transfection; infectious dose for this stage not given
- Measurement: 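z-score of rotavirus antigen signal per well, from a fluorescent immunoassay, relative to non-targeting control wells on the same plate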
- Reading the numbers: z-score vs non-targeting control: higher = more rotavirus replication than with non-targeting control
- Call rule: In these data the active calls have z-score vs non-targeting control at about -1 or lower, or at about 1 or higher
- Calls: active = z-score beyond 1 either way; inactive = z-score within 1 of zero
The whole screen tested about 12,000 reagents; this is an unselected part. About 5,600 of them (46%) count as active. 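Active calls cover z-scores past 1 in both directions, so they include lowered as well as raised rotavirus replication.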

gene knocked down	z-score vs non-targeting control	Call
OLIG1 (GeneID 116448)	0.778	inactive
RETNLB (GeneID 84666)	-5.67	active
ZNF566 (GeneID 84924)	0.0766	inactive
ENTPD8 (GeneID 377841)	-2.28	active
ARL17A (GeneID 51326)	-1.15	active
NIPSNAP2 (GeneID 2631)	0.312	inactive
SLC15A4 (GeneID 121260)	-0.806	inactive
WASHC1 (GeneID 100287171)	1.5	active
MTSS1 (GeneID 9788)	-1.35	active
HPCAL4 (GeneID 51440)	-0.185	inactive
LONP1 (GeneID 9361)	1.52	active
SNRPC (GeneID 6631)	-0.924	inactive
RPL35A (GeneID 6165)	-1.94	active
PRKRA (GeneID 8575)	0.195	inactive
CAPN2 (GeneID 824)	-0.97	inactive
SIRAL2 (GeneID 55007)	-0.517	inactive
ZCWPW1 (GeneID 55063)	-0.184	inactive
TOX3 (GeneID 27324)	-0.62	inactive
NAPA (GeneID 8775)	-2.81	active
CCNK (GeneID 8812)	0.565	inactive
ZBTB21 (GeneID 49854)	0.36	inactive
FEZF1 (GeneID 389549)	-1.63	active
LRFN4 (GeneID 78999)	0.522	inactive
RSPO3 (GeneID 84870)	-0.311	inactive
TNS4 (GeneID 84951)	0.49	inactive
SPAG11A (GeneID 653423)	-1.64	active
TRMT5 (GeneID 57570)	-0.0441	inactive
LRFN2 (GeneID 57497)	-0.515	inactive
LOX (GeneID 4015)	-3.1	active
SULT1B1 (GeneID 27284)	-0.862	inactive
NCF2 (GeneID 4688)	0.587	inactive
SERPINB8 (GeneID 5271)	1.23	active
CYBRD1 (GeneID 79901)	-2.16	active
TAS1R2 (GeneID 80834)	-0.717	inactive
OR8B3 (GeneID 390271)	-0.262	inactive
SLC25A42 (GeneID 284439)	0.654	inactive
PYGB (GeneID 5834)	1.27	active
GAA (GeneID 2548)	0.991	inactive
GJA4 (GeneID 2701)	-1.51	active
CHAF1B (GeneID 8208)	1.12	active
SLC15A2 (GeneID 6565)	0.62	inactive
PNPLA6 (GeneID 10908)	1.26	active
DHX29 (GeneID 54505)	-0.995	inactive
MSTN (GeneID 2660)	1.47	active
STAT4 (GeneID 6775)	-1.68	active
GAD1 (GeneID 2571)	0.97	inactive
PSMD7 (GeneID 5713)	0.921	inactive
ZNF484 (GeneID 83744)	-0.393	inactive
OR6C2 (GeneID 341416)	-0.577	inactive
MRPS6 (GeneID 64968)	-2.23	active
ZNF384 (GeneID 171017)	1.2	active
MRPL51 (GeneID 51258)	-2.22	active
NNMT (GeneID 4837)	2.46	active
UGT1A3 (GeneID 54659)	-0.809	inactive
SLC35G3 (GeneID 146861)	-0.635	inactive
IGF2BP2 (GeneID 10644)	1.27	active
PLD2 (GeneID 5338)	-1.6	active
BAG2 (GeneID 9532)	-0.705	inactive
LPIN2 (GeneID 9663)	-0.667	inactive
ODAM (GeneID 54959)	0.771	inactive
TARBP2 (GeneID 6895)	-0.638	inactive
ZSCAN23 (GeneID 222696)	1.42	active
CD7 (GeneID 924)	-1.54	active
NUP98 (GeneID 4928)	0.732	inactive
RGS14 (GeneID 10636)	-1.74	active
SELENOS (GeneID 55829)	-1.93	active
TMEM184B (GeneID 25829)	-1.7	active
AIFM2 (GeneID 84883)	-1.93	active
C20orf141 (GeneID 128653)	-0.205	inactive
MFAP5 (GeneID 8076)	-0.938	inactive
TEX47 (GeneID 219557)	1.16	active
NOTCH1 (GeneID 4851)	-1.37	active
DVL2 (GeneID 1856)	0.274	inactive
KRTAP17-1 (GeneID 83902)	1.26	active
MED15 (GeneID 51586)	-1.01	active
OGDHL (GeneID 55753)	-1.54	active
CPLX1 (GeneID 10815)	0.786	inactive
CD247 (GeneID 919)	2.98	active
DRC4 (GeneID 2622)	1.83	active
SPATA25 (GeneID 128497)	-1.4	active

Not a retest: 7 of the entries above.
gene knocked down	z-score vs non-targeting control	Call
ZNF384 (GeneID 171017)	1.2	active
MRPL51 (GeneID 51258)	-2.22	active
NNMT (GeneID 4837)	2.46	active
UGT1A3 (GeneID 54659)	-0.809	inactive
SLC35G3 (GeneID 146861)	-0.635	inactive
IGF2BP2 (GeneID 10644)	1.27	active
PLD2 (GeneID 5338)	-1.6	active

More results follow.
gene knocked down	z-score vs non-targeting control	Call
RFX4 (GeneID 5992)	0.882	inactive
FRYL (GeneID 285527)	-1.28	active
HEBP2 (GeneID 23593)	0.976	inactive
NTN3 (GeneID 4917)	1.45	active
KRT80 (GeneID 144501)	-2.38	active
LRRC37A3 (GeneID 374819)	0.945	inactive
SLC25A11 (GeneID 8402)	1.21	active
DIS3 (GeneID 22894)	-1.09	active
WDR54 (GeneID 84058)	1.05	active
SLC52A1 (GeneID 55065)	0.96	inactive
SLC14A2 (GeneID 8170)	2.22	active
GM2A (GeneID 2760)	-0.63	inactive
NID1 (GeneID 4811)	-0.698	inactive
CLEC7A (GeneID 64581)	0.555	inactive
RGS8 (GeneID 85397)	-0.754	inactive
DCAF13 (GeneID 25879)	1.03	active
CLDND1 (GeneID 56650)	1.05	active
AMPH (GeneID 273)	0.296	inactive
TFG (GeneID 10342)	-2.36	active
CTNNA3 (GeneID 29119)	1.95	active
OR7G2 (GeneID 390882)	-0.538	inactive
TRMT1L (GeneID 81627)	-1.54	active
SSR1 (GeneID 6745)	-0.866	inactive
SLAIN1 (GeneID 122060)	-1.17	active
FSAF1 (GeneID 128061)	0.508	inactive
RASAL1 (GeneID 8437)	-0.752	inactive
CCNB1 (GeneID 891)	0.639	inactive
PCDH9 (GeneID 5101)	-1.02	active
STT3B (GeneID 201595)	-1.09	active
KCTD17 (GeneID 79734)	0.673	inactive
ATP11C (GeneID 286410)	-1.21	active
NEO1 (GeneID 4756)	-0.709	inactive
SLC16A11 (GeneID 162515)	-0.682	inactive
EXT1 (GeneID 2131)	0.549	inactive
DYNC2I2 (GeneID 89891)	1.28	active
OR11H12 (GeneID 440153)	-0.752	inactive
PLEK (GeneID 5341)	-1.01	active
RBM7 (GeneID 10179)	-1.12	active
COX4I2 (GeneID 84701)	0.534	inactive
HDHD3 (GeneID 81932)	0.794	inactive
PPP4R3A (GeneID 55671)	-0.704	inactive
OR7A10 (GeneID 390892)	-1.31	active
CRYAB (GeneID 1410)	0.146	inactive
CORO1B (GeneID 57175)	-1.39	active
HOXB4 (GeneID 3214)	-1.81	active
PRM1 (GeneID 5619)	-1.29	active
NDUFA5 (GeneID 4698)	1.05	active
FOLR3 (GeneID 2352)	-1.5	active
DNAJB5 (GeneID 25822)	-1.33	active
MICOS10 (GeneID 440574)	-0.581	inactive
PLXNB3 (GeneID 5365)	-0.356	inactive
RRAS2 (GeneID 22800)	1.08	active
TM9SF1 (GeneID 10548)	0.28	inactive
PLA2G10 (GeneID 8399)	0.881	inactive
MTUS2 (GeneID 23281)	0.571	inactive
SPIRE2 (GeneID 84501)	-0.673	inactive
EFHC1 (GeneID 114327)	1.5	active
SFXN5 (GeneID 94097)	0.685	inactive
DAZAP2 (GeneID 9802)	-0.193	inactive
MRPL44 (GeneID 65080)	-1.91	active
